# Test results from ChEMBL document CHEMBL5390309, “Characterization of 2,4-Dianilinopyrimidines Against Five P. falciparum Kinases PfARK1, PfARK3, PfNEK3, PfPK9, and PfPKB” (2023).
# Tests used:
# Plasmodium falciparum [1] = test: Inhibition of Plasmodium falciparum ARK3 assessed as remaining activity at 1 uM incubated for 2 hrs by luciferin-reagent based luminometer analysis relative to control
# Plasmodium falciparum [2] = test: Inhibition of Plasmodium falciparum NEK3 assessed as remaining activity at 1 uM incubated for 2 hrs by luciferin-reagent based luminometer analysis relative to control
# Plasmodium falciparum [3] = test: Inhibition of Plasmodium falciparum PKB assessed as remaining activity at 1 uM incubated for 2 hrs by luciferin-reagent based luminometer analysis relative to control
# Plasmodium falciparum [4] = test: Inhibition of Plasmodium falciparum PK9 assessed as remaining activity at 1 uM incubated for 2 hrs by luciferin-reagent based luminometer analysis relative to control
# Plasmodium falciparum [5] = test: Inhibition of Plasmodium falciparum ARK1 assessed as remaining activity at 1 uM incubated for 2 hrs by luciferin-reagent based luminometer analysis relative to control
# Plasmodium falciparum [6] = test: Inhibition of Plasmodium falciparum CDPK2 assessed as remaining activity at 1 uM incubated for 2 hrs by luciferin-reagent based luminometer analysis relative to control
# Plasmodium falciparum [7] = test: Inhibition of Plasmodium falciparum NEK1 assessed as remaining activity at 1 uM incubated for 2 hrs by luciferin-reagent based luminometer analysis relative to control
# Plasmodium falciparum [8] = test: Inhibition of Plasmodium falciparum CDPK5 assessed as remaining activity at 1 uM incubated for 2 hrs by luciferin-reagent based luminometer analysis relative to control
smiles,measurement,setting,value
Cc1cc(Nc2ncc(Cl)c(Nc3ccccc3NS(C)(=O)=O)n2)ccc1N1CCOCC1,Activity,Plasmodium falciparum [1],35%
same,Activity,Plasmodium falciparum [2],7%
same,Activity,Plasmodium falciparum [3],5%
same,Activity,Plasmodium falciparum [4],3%
same,Activity,Plasmodium falciparum [5],20%
CS(=O)(=O)Nc1ccccc1Nc1nc(Nc2ccc(N3CCOCC3)c(C(F)(F)F)c2)ncc1Cl,Activity,Plasmodium falciparum [1],47%
same,Activity,Plasmodium falciparum [2],8%
same,Activity,Plasmodium falciparum [3],0%
same,Activity,Plasmodium falciparum [4],15%
same,Activity,Plasmodium falciparum [5],23%
CS(=O)(=O)Nc1ccccc1Nc1nc(Nc2ccc(N3CCOCC3)c(Cl)c2)ncc1Cl,Activity,Plasmodium falciparum [1],44%
same,Activity,Plasmodium falciparum [2],14%
same,Activity,Plasmodium falciparum [3],6%
same,Activity,Plasmodium falciparum [4],8%
same,Activity,Plasmodium falciparum [5],19%
COc1cc(N2CCOCC2)ccc1Nc1ncc(Cl)c(-n2c(=O)[nH]c3ccccc32)n1,Activity,Plasmodium falciparum [1],76%
same,Activity,Plasmodium falciparum [2],97%
same,Activity,Plasmodium falciparum [3],100%
same,Activity,Plasmodium falciparum [4],98%
same,Activity,Plasmodium falciparum [5],95%
COc1cc(N2CCOCC2)ccc1Nc1ncc(C#N)c(Nc2ccccc2NS(C)(=O)=O)n1,Activity,Plasmodium falciparum [1],100%
same,Activity,Plasmodium falciparum [2],14%
same,Activity,Plasmodium falciparum [3],20%
same,Activity,Plasmodium falciparum [4],73%
same,Activity,Plasmodium falciparum [5],79%
COc1cc(N2CCOCC2)ccc1Nc1ncc(C2CC2)c(Nc2ccccc2NS(C)(=O)=O)n1,Activity,Plasmodium falciparum [1],100%
same,Activity,Plasmodium falciparum [2],100%
same,Activity,Plasmodium falciparum [3],48%
same,Activity,Plasmodium falciparum [4],100%
same,Activity,Plasmodium falciparum [5],100%
CS(=O)(=O)Nc1ccccc1Nc1nc(Nc2ccc(N3CCOCC3)cc2)ncc1Cl,Activity,Plasmodium falciparum [1],42%
same,Activity,Plasmodium falciparum [2],2%
same,Activity,Plasmodium falciparum [3],9%
same,Activity,Plasmodium falciparum [4],6%
same,Activity,Plasmodium falciparum [5],21%
COc1cc(N2CCOCC2)ccc1Nc1ncc(Cl)c(Nc2ccccc2NS(=O)(=O)c2cn(C)cn2)n1,Activity,Plasmodium falciparum [1],77%
same,Activity,Plasmodium falciparum [2],56%
same,Activity,Plasmodium falciparum [3],65%
same,Activity,Plasmodium falciparum [4],100%
same,Activity,Plasmodium falciparum [5],70%
COc1cc(N2CCOCC2)ccc1Nc1ncc(Cl)c(Nc2ccccc2NC(N)=O)n1,Activity,Plasmodium falciparum [1],87%
same,Activity,Plasmodium falciparum [2],81%
same,Activity,Plasmodium falciparum [3],17%
same,Activity,Plasmodium falciparum [4],11%
same,Activity,Plasmodium falciparum [5],96%
CS(=O)(=O)Nc1ccccc1Nc1nc(Nc2ccc(N3CCOCC3)cc2F)ncc1Cl,Activity,Plasmodium falciparum [1],46%
same,Activity,Plasmodium falciparum [2],8%
same,Activity,Plasmodium falciparum [3],8%
same,Activity,Plasmodium falciparum [4],20%
same,Activity,Plasmodium falciparum [5],38%
COc1cc(N2CCOCC2)ccc1Nc1ncc(C)c(Nc2ccccc2NS(C)(=O)=O)n1,Activity,Plasmodium falciparum [1],82%
same,Activity,Plasmodium falciparum [2],44%
same,Activity,Plasmodium falciparum [3],24%
same,Activity,Plasmodium falciparum [4],88%
same,Activity,Plasmodium falciparum [5],100%
COc1cc(N2CCOCC2)ccc1Nc1ncc(Cl)c(Nc2ccccc2NS(C)(=O)=O)n1,Activity,Plasmodium falciparum [1],50%
same,Activity,Plasmodium falciparum [2],34%
same,Activity,Plasmodium falciparum [3],11%
same,Activity,Plasmodium falciparum [6],78%
same,Activity,Plasmodium falciparum [7],85%
same,Activity,Plasmodium falciparum [4],43%
same,Activity,Plasmodium falciparum [5],53%
same,Activity,Plasmodium falciparum [8],97%
CCS(=O)(=O)Nc1ccccc1Nc1nc(Nc2ccc(N3CCOCC3)cc2OC)ncc1Cl,Activity,Plasmodium falciparum [1],40%
same,Activity,Plasmodium falciparum [2],40%
same,Activity,Plasmodium falciparum [3],7%
same,Activity,Plasmodium falciparum [4],39%
same,Activity,Plasmodium falciparum [5],79%
COc1cc(N2CCOCC2)ccc1Nc1nccc(Nc2ccccc2NS(C)(=O)=O)n1,Activity,Plasmodium falciparum [1],90%
same,Activity,Plasmodium falciparum [2],100%
same,Activity,Plasmodium falciparum [3],100%
same,Activity,Plasmodium falciparum [4],100%
same,Activity,Plasmodium falciparum [5],100%
CCc1cnc(Nc2ccc(N3CCOCC3)cc2OC)nc1Nc1ccccc1NS(C)(=O)=O,Activity,Plasmodium falciparum [1],81%
same,Activity,Plasmodium falciparum [2],24%
same,Activity,Plasmodium falciparum [3],16%
same,Activity,Plasmodium falciparum [4],79%
same,Activity,Plasmodium falciparum [5],100%
COc1cc(N2CCOCC2)ccc1Nc1ncc(C(F)(F)F)c(Nc2ccccc2NS(C)(=O)=O)n1,Activity,Plasmodium falciparum [1],47%
same,Activity,Plasmodium falciparum [2],22%
same,Activity,Plasmodium falciparum [3],6%
same,Activity,Plasmodium falciparum [4],10%
same,Activity,Plasmodium falciparum [5],58%
CS(=O)(=O)Nc1ccccc1Nc1nc(Nc2ccc(N3CCOCC3)cc2O)ncc1Cl,Activity,Plasmodium falciparum [1],81%
same,Activity,Plasmodium falciparum [2],11%
same,Activity,Plasmodium falciparum [3],7%
same,Activity,Plasmodium falciparum [4],49%
same,Activity,Plasmodium falciparum [5],69%
COc1cc(N2CCOCC2)ccc1Nc1ncc(Br)c(Nc2ccccc2NS(C)(=O)=O)n1,Activity,Plasmodium falciparum [1],45%
same,Activity,Plasmodium falciparum [2],20%
same,Activity,Plasmodium falciparum [3],10%
same,Activity,Plasmodium falciparum [4],19%
same,Activity,Plasmodium falciparum [5],84%
COc1cc(N2CCOCC2)ccc1Nc1ncc(C(N)=O)c(Nc2ccccc2NS(C)(=O)=O)n1,Activity,Plasmodium falciparum [1],93%
same,Activity,Plasmodium falciparum [2],51%
same,Activity,Plasmodium falciparum [3],29%
same,Activity,Plasmodium falciparum [4],19%
same,Activity,Plasmodium falciparum [5],39%
COc1cc(N2CCOCC2)ccc1Nc1ncc(Cl)c(Nc2ccccc2NS(=O)(=O)C2CC2)n1,Activity,Plasmodium falciparum [1],36%
same,Activity,Plasmodium falciparum [2],48%
same,Activity,Plasmodium falciparum [3],23%
same,Activity,Plasmodium falciparum [4],61%
same,Activity,Plasmodium falciparum [5],46%
COc1cc(N2CCOCC2)ccc1Nc1ncc(I)c(Nc2ccccc2NS(C)(=O)=O)n1,Activity,Plasmodium falciparum [1],49%
same,Activity,Plasmodium falciparum [2],23%
same,Activity,Plasmodium falciparum [3],9%
same,Activity,Plasmodium falciparum [4],6%
same,Activity,Plasmodium falciparum [5],75%
COc1cc(Nc2ncc(Cl)c(Nc3ccccc3NS(C)(=O)=O)n2)ccc1N1CCOCC1,Activity,Plasmodium falciparum [1],11%
same,Activity,Plasmodium falciparum [2],6%
same,Activity,Plasmodium falciparum [3],0%
same,Activity,Plasmodium falciparum [4],4%
same,Activity,Plasmodium falciparum [5],9%
COc1cc(N2CCOCC2)ccc1Nc1ncc(N(C)C)c(Nc2ccccc2NS(C)(=O)=O)n1,Activity,Plasmodium falciparum [1],100%
same,Activity,Plasmodium falciparum [2],46%
same,Activity,Plasmodium falciparum [3],22%
same,Activity,Plasmodium falciparum [4],89%
same,Activity,Plasmodium falciparum [5],85%
CCOC(=O)c1cnc(Nc2ccc(N3CCOCC3)cc2OC)nc1Nc1ccccc1NS(C)(=O)=O,Activity,Plasmodium falciparum [1],96%
same,Activity,Plasmodium falciparum [2],65%
same,Activity,Plasmodium falciparum [3],93%
same,Activity,Plasmodium falciparum [4],100%
same,Activity,Plasmodium falciparum [5],100%
COc1cc(N2CCOCC2)ccc1Nc1ncc(Cl)c(Nc2ccccc2NS(=O)(=O)NC(C)C)n1,Activity,Plasmodium falciparum [1],45%
same,Activity,Plasmodium falciparum [2],80%
same,Activity,Plasmodium falciparum [3],82%
same,Activity,Plasmodium falciparum [4],90%
same,Activity,Plasmodium falciparum [5],80%
CS(=O)(=O)Nc1ccccc1Nc1nc(Nc2ccc(N3CCOCC3)cc2Cl)ncc1Cl,Activity,Plasmodium falciparum [1],74%
same,Activity,Plasmodium falciparum [2],7%
same,Activity,Plasmodium falciparum [3],0%
same,Activity,Plasmodium falciparum [4],32%
same,Activity,Plasmodium falciparum [5],84%
COc1cc(N2CCOCC2)ccc1Nc1ncc(COCC(F)(F)F)c(Nc2ccccc2NS(C)(=O)=O)n1,Activity,Plasmodium falciparum [1],97%
same,Activity,Plasmodium falciparum [2],67%
same,Activity,Plasmodium falciparum [3],100%
same,Activity,Plasmodium falciparum [4],100%
same,Activity,Plasmodium falciparum [5],100%
COc1cc(N2CCOCC2)ccc1Nc1ncc(F)c(Nc2ccccc2NS(C)(=O)=O)n1,Activity,Plasmodium falciparum [1],88%
same,Activity,Plasmodium falciparum [2],68%
same,Activity,Plasmodium falciparum [3],55%
same,Activity,Plasmodium falciparum [4],97%
same,Activity,Plasmodium falciparum [5],99%
COc1cc(N2CCOCC2)ccc1Nc1ncc(O)c(Nc2ccccc2NS(C)(=O)=O)n1,Activity,Plasmodium falciparum [1],100%
same,Activity,Plasmodium falciparum [2],95%
same,Activity,Plasmodium falciparum [3],100%
same,Activity,Plasmodium falciparum [4],100%
same,Activity,Plasmodium falciparum [5],100%
COc1cc(N2CCOCC2)ccc1Nc1ncc(Cl)c(Nc2ccccc2NC(C)=O)n1,Activity,Plasmodium falciparum [1],100%
same,Activity,Plasmodium falciparum [2],93%
same,Activity,Plasmodium falciparum [3],66%
same,Activity,Plasmodium falciparum [4],70%
same,Activity,Plasmodium falciparum [5],65%
CCOCc1cnc(Nc2ccc(N3CCOCC3)cc2OC)nc1Nc1ccccc1NS(C)(=O)=O,Activity,Plasmodium falciparum [1],100%
same,Activity,Plasmodium falciparum [2],100%
same,Activity,Plasmodium falciparum [3],89%
same,Activity,Plasmodium falciparum [4],100%
same,Activity,Plasmodium falciparum [5],97%
COc1cc(N2CCOCC2)ccc1Nc1ncc(C(F)(F)F)c(Nc2ccccc2N)n1,Activity,Plasmodium falciparum [1],86%
same,Activity,Plasmodium falciparum [2],84%
same,Activity,Plasmodium falciparum [3],61%
same,Activity,Plasmodium falciparum [4],83%
same,Activity,Plasmodium falciparum [5],81%
Cc1cc(N2CCOCC2)ccc1Nc1ncc(Cl)c(Nc2ccccc2NS(C)(=O)=O)n1,Activity,Plasmodium falciparum [1],67%
same,Activity,Plasmodium falciparum [2],7%
same,Activity,Plasmodium falciparum [3],10%
same,Activity,Plasmodium falciparum [4],20%
same,Activity,Plasmodium falciparum [5],43%
COc1cc(N2CCOCC2)ccc1Nc1ncc(-c2cnn(C)c2)c(Nc2ccccc2NS(C)(=O)=O)n1,Activity,Plasmodium falciparum [1],95%
same,Activity,Plasmodium falciparum [2],42%
same,Activity,Plasmodium falciparum [3],97%
same,Activity,Plasmodium falciparum [4],100%
same,Activity,Plasmodium falciparum [5],89%
COc1cc(N2CCOCC2)ccc1Nc1ncc(OC)c(Nc2ccccc2NS(C)(=O)=O)n1,Activity,Plasmodium falciparum [1],83%
same,Activity,Plasmodium falciparum [2],40%
same,Activity,Plasmodium falciparum [3],44%
same,Activity,Plasmodium falciparum [4],81%
same,Activity,Plasmodium falciparum [5],75%
COc1cc(N2CCOCC2)ccc1Nc1ncc(Cl)c(Nc2ccccc2NS(=O)(=O)c2ccccc2)n1,Activity,Plasmodium falciparum [1],31%
same,Activity,Plasmodium falciparum [2],49%
same,Activity,Plasmodium falciparum [3],60%
same,Activity,Plasmodium falciparum [4],85%
same,Activity,Plasmodium falciparum [5],73%
COc1cc(N2CCOCC2)ccc1Nc1ncnc(Nc2ccccc2NS(C)(=O)=O)n1,Activity,Plasmodium falciparum [1],100%
same,Activity,Plasmodium falciparum [2],82%
same,Activity,Plasmodium falciparum [3],78%
same,Activity,Plasmodium falciparum [4],100%
same,Activity,Plasmodium falciparum [5],95%
CCOc1cc(N2CCOCC2)ccc1Nc1ncc(Cl)c(Nc2ccccc2NS(C)(=O)=O)n1,Activity,Plasmodium falciparum [1],73%
same,Activity,Plasmodium falciparum [2],49%
same,Activity,Plasmodium falciparum [3],46%
same,Activity,Plasmodium falciparum [4],78%
same,Activity,Plasmodium falciparum [5],100%
COc1cc(N2CCOCC2)ccc1Nc1ncc(N)c(Nc2ccccc2NS(C)(=O)=O)n1,Activity,Plasmodium falciparum [1],100%
same,Activity,Plasmodium falciparum [2],93%
same,Activity,Plasmodium falciparum [3],96%
same,Activity,Plasmodium falciparum [4],100%
same,Activity,Plasmodium falciparum [5],97%
COc1cc(N2CCOCC2)ccc1Nc1ncc(Cl)c(Nc2ccccc2NS(=O)(=O)CC(C)C)n1,Activity,Plasmodium falciparum [1],51%
same,Activity,Plasmodium falciparum [2],83%
same,Activity,Plasmodium falciparum [3],70%
same,Activity,Plasmodium falciparum [4],84%
same,Activity,Plasmodium falciparum [5],77%
